Construct, isoform or probe ends are uncertain for at least one entry. Weaker means in comparison with the reference protein, sequence or condition of that experiment. At least one verdict rests on a figure or table, not on a statement of the authors. Tags and fusion partners may be left off the protein sequences shown.
Target: T1, ZC3H11-119 (Trypanosoma brucei) (UniProt Q57W26)
T1 sequence (looked up): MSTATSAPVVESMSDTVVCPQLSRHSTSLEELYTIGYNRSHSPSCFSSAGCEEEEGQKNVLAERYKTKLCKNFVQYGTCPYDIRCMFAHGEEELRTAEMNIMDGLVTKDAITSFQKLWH
Assay: EMSA
Settings: results similar to ZC3H11-104; 20 mM Tris-HCl pH 8.0, 50 mM NaCl, 10 uM ZnCl2, 0.01% IGEPAL CA-630, 0.1 mg/ml tRNA, 10 ug/ml heparin (legends: 5 ug/ml or 10 mg/ml), room temperature 30 min; recombinant protein; residues 1-119; protein details: His10 (called His-tagged); label: 5'-32P (unlabelled as competitor)

**Q.** Does AAAAAAAAAAAAAAAAAAAAAAA [A23] bind?
**A.** binds more weakly
